# Experimental data as given in US20010044416A1 (priority 2000, published 2001).
# Key:
# [1] = system: FLUVIRAL®-specific antibodies; conditions: oral FLUVIRAL® 50 μl days 0, 7, 14 with 10 μg ODN, vs no adjuvant; plasma 1 week after final immunization (FIG. 4a)
# [2] = system: TT-specific antibodies (anti-TT); conditions: TT 10 μg days 0, 7, 14, no adjuvant, ODN 100 μg or CT 10 μg
Substance,augmentation of mean FLUVIRAL®-specific IgG titers in plasma [1],"mice responding (anti-TT IgG in plasma>100) ([2]; IN route, plasma 1 week after final immunization (FIG. 8b))","mice responding (anti-TT IgG in plasma>100) ([2]; IR route, plasma 1 week after final immunization (FIG. 8a))","mice responding (anti-TT IgG in plasma>100) ([2]; oral delivery, plasma 1 week after final immunization (FIG. 8c))"
5′-TCCATGAGCTTCCTGAGCTT-3′,approximately 5 fold,–,–,–
Cholera toxin,–,5/5,5/5,5/5

# Where two headings read alike, the source gives them in different places.
